Measured values from several laboratories, pooled; numbers as filed in NIAID ChemDB.

Common to all: tests in culture; species: Hepatitis C virus; read-out: EC50

Conditions beyond the fields shown may differ between rows. a–b is a range or a potency band. ECn is the concentration giving n% inhibition of infection, replication or growth. Blank or dashed fields: not listed here.

SMILES	cells	read by	strain or isolate	value
CCCCCCCCOc1ccc(N(C(C)=O)c2nc(-c3cccnc3)cs2)cc1C(F)(F)F				<1 µM
COC(=O)c1ccc2c(C3CCCCC3)c3n(c2c1)CC(=O)N3	Huh7	replicon		1–10 µM
CCCCCOc1ccc(N(C(N)=O)c2nc(-c3ccc(F)cc3F)cs2)cc1C(F)(F)F				<1 µM
COc1cc2c(=O)c(-c3noc(Cc4ccsc4)n3)cn(Cc3ccc(Cl)cc3)c2cc1OC		replicon	1b	<10 µM
Clc1ccccc1-n1ncc2c(NCCc3c[nH]c4ccccc34)ncnc21	HUH 9B	replicon		<1 µM
Cc1ccc(Nc2s[nH]c(=O)c2C#N)cc1	Huh7	replicon		>50 µM
O=c1c(-c2noc(Cc3ccccc3)n2)cn(Cc2ccc(C(F)(F)F)cc2)c2cc(N3CCCNCC3)c(F)cc12		replicon	1b	<2 µM
N#Cc1c(Nc2ccc([N+](=O)[O-])cc2)s[nH]c1=O	Huh7	replicon		>50 µM
CCOc1ccc(Nc2ncnc3c2cnn3-c2ccccc2)cc1	HUH 9B	replicon		1–10 µM
CN(C)C(=S)Nc1cccc(OCCCCCOc2ccc(-c3ccccc3)cc2)c1	Ava5-EG(delta4AB)SEAP	reporter gene / fluorescence		0.001–1 µM
CCCCCCCCOc1ccc(N(C(=O)COCCOCCOC)c2nc(-c3cccnc3)c(F)s2)cc1C(F)(F)F				<1 µM
CC1(C)CC(=O)C2=C(C1)Nc1c(O)cccc1N[C@H]2c1ccc(OCc2ccccc2)cc1F		luciferase / reporter gene / replicon	1b	6.76 µM
CN1CCN(c2cc3c(cc2F)c(=O)c(-c2noc(Cc4ccccn4)n2)cn3Cc2ccc(Cl)cc2)CC1		replicon	1b	>10 µM
NS(=O)(=O)c1ccc(CCNc2ncnc3c2cnn3-c2ccc(Cl)cc2Cl)cc1	HUH 9B	replicon		<1 µM
NC(=S)Nc1cccc(OCCCCCOc2ccc(-c3ccccc3)cc2)c1	Ava5-EG(delta4AB)SEAP	reporter gene / fluorescence		0.001–1 µM
N#Cc1c(NCC2CC2)s[nH]c1=O	Huh7	replicon		>50 µM
CCCCCCCNC(=S)Nc1cccc(OCCCCCc2ccccc2)c1	Ava5-EG(delta4AB)SEAP	reporter gene / fluorescence		0.001–1 µM
N#Cc1c(Nc2cc(Br)cc(C(F)(F)F)c2)s[nH]c1=O	Huh7	replicon		<1 µM
CCCCCCCCNC(=S)Nc1cccc(OCCCCCc2ccccc2)c1	Ava5-EG(delta4AB)SEAP	reporter gene / fluorescence		0.001–1 µM
O=c1c(-c2noc(Cc3ccccc3)n2)cn(CC2CCCCC2)c2ccc(O)cc12		replicon	1b	<2 µM
CCN(CC)C(=O)C1=Cc2ccccc2-c2c(C3CCCCC3)c3ccc(C(=O)NS(=O)(=O)N(C)C)cc3n2C1	Huh7	replicon		0.01–1 µM
CCCCCOc1ccc(N(C(=O)C(N)=O)c2nc(-c3cccnc3)cs2)cc1C(F)(F)F				<1 µM
COC(=O)C1=Cc2ccncc2-c2c(C3CCCCC3)c3ccc(C(=O)OC)cc3n2C1	Huh7	replicon		1–10 µM
CN(C)c1cc2c(cc1F)c(=O)c(-c1noc(C(C)(C)c3ccc(F)cc3)n1)cn2Cc1ccc(C(F)(F)F)cc1		replicon	1b	<2 µM
O=C(NS(=O)(=O)c1ccccc1)c1ccc2c(C3CCCCC3)c3n(c2c1)CC=Cc1ncccc1-3	Huh7	replicon		>10 µM
COc1ccc(Cl)cc1Nc1ncnc2c1cnn2-c1ccc(F)cc1F	HUH 9B	replicon		>10 µM
C[C@@H](c1ccccc1)n1cc(-c2noc(C(C)(C)c3ccccc3)n2)c(=O)c2cc(F)c(N3CCOCC3)cc21		replicon	1b	>10 µM
CCc1ccc(OCc2ccc(C3C4=C(CC(C)(C)CC4=O)Nc4c(O)cccc4N3C(=O)C(C)C)o2)cc1		luciferase / reporter gene / replicon	1b	1.05 µM
Cc1ccc(-n2ncc3c(Nc4cccc(Cl)c4)ncnc32)c(C)c1	HUH 9B	replicon		1–10 µM
COC(=O)c1ccc2c(C3CCCCC3)c3n(c2c1)C(O)c1cc(Cl)ccc1-3	Huh7	replicon		0.01–1 µM
CC1(C)CC(=O)C2=C(C1)Nc1c(O)cccc1N(C(=O)c1cscn1)[C@@H]2c1ccc(OCc2ccccc2)cc1F		luciferase / reporter gene / replicon	1b	10.95 µM
COc1ccc(Cl)cc1Nc1ncnc2c1cnn2-c1cccc(Cl)c1	HUH 9B	replicon		<1 µM
CC(C)C(=O)N1c2cccc(O)c2NC2=C(C(=O)CC(C)(C)C2)[C@H]1c1ccc(OCc2ccccc2)cc1F		luciferase / reporter gene / replicon	1b	1.95 µM
COC(=O)/C=C/c1ccc(NC(=O)C2(NC(=O)c3ccc4c(C5CCCCC5)c5n(c4c3)CCCn3cccc3-5)CCCC2)cc1	Huh7	replicon		1–10 µM
COC(=O)c1ccccc1Nc1s[nH]c(=O)c1C#N	Huh7	replicon		>50 µM
CCn1c2ccccc2c2cc(NC(N)=S)ccc21	Ava5-EG(delta4AB)SEAP	reporter gene / fluorescence		0.001–1 µM
CC(C)(C)OC(=O)N1CCCCn2c(c(C3CCCCC3)c3ccc(C(=O)O)cc32)-c2cnccc21	Huh7	replicon		>10 µM
CC(C)C(=O)N1c2cccc(O)c2NC2=C(C(=O)CC(C)(C)C2)C1c1ccc(O[C@@H](C)c2ccccc2)cc1F		luciferase / reporter gene / replicon	1b	>32 µM
Cc1ccc(-n2ncc3c(NC(=O)Nc4ccc(S(N)(=O)=O)cc4)ncnc32)c(C)c1	HUH 9B	replicon		<1 µM
C1=C[C@@H](c2ncc(-c3ccc(-c4ccc(-c5cnc([C@@H]6C=CCN6)[nH]5)cc4)cc3)[nH]2)NC1	Luc1a.1.19	luciferase	1a	6.5 µM
NC(=O)COc1ccc2c(c1)S(=O)(=O)N=C(c1c(O)c3cc(F)ccc3n(CCC3CC3)c1=O)N2		replicon	1b 45967	0.024 µM
CN(C)S(=O)(=O)NC(=O)c1ccc2c(C3CCCCC3)c3n(c2c1)CC(C(=O)N1CCCC(O)C1)Cc1ccccc1-3	Huh7	replicon		0.01–1 µM

Repeating the final 2 entries:

| SMILES | cells | read by | strain or isolate | value |
|---|---|---|---|---|
| NC(=O)COc1ccc2c(c1)S(=O)(=O)N=C(c1c(O)c3cc(F)ccc3n(CCC3CC3)c1=O)N2 |  | replicon | 1b 45967 | 0.024 µM |
| CN(C)S(=O)(=O)NC(=O)c1ccc2c(C3CCCCC3)c3n(c2c1)CC(C(=O)N1CCCC(O)C1)Cc1ccccc1-3 | Huh7 | replicon |  | 0.01–1 µM |